Pooled drug test results. Numbers come from NIAID ChemDB, via PubChem.

Common to all: growth or infection tests; organism: HIV-1

An empty or dashed field is not shown. ECn: concentration that inhibits the pathogen or its effect by n%. Lines come from different laboratories, so protocols vary.

compound,measure,cells,method,strain,changes,result
Cc1cn([C@H]2C[C@H](N=[N+]=[N-])[C@@H](CO)O2)c(=O)[nH]c1=O,EC50,CEM + CEM-SS,plaque count / syncytia,G-762/G-910 (AZT-RS),,>10 µM
CCN(CC)C(=O)Oc1nsnc1-c1c(Cl)cccc1Cl,EC50,MT-4,cytopathic effect,IIIB,,0.245 µM
FC(F)(F)c1cc(Cn2c(Br)nc3cc(Cl)c(Cl)cc32)cc(C(F)(F)F)c1,EC50,CEM + CEM-SS,plaque count / syncytia,IIIB,,5.9 µM
O=[N+]([O-])c1ccccc1S(=O)(=O)c1ccccc1,EC50,PBMC (monocytes/macrophages) + PBMC,,BaL,,2.78 µM
CCOC(=O)c1cn([C@@H]2O[C@@H](COC(=O)c3ccccc3)[C@H](OC(=O)c3ccccc3)[C@H]2F)nn1,EC50,,,,,>100 µM
O=C([O-])c1cc(C(=O)[O-])cc(-c2c3nc(c(-c4cc(C(=O)[O-])cc(C(=O)[O-])c4)c4ccc([n-]4)c(-c4cc(C(=O)[O-])cc(C(=O)[O-])c4)c4nc(c(-c5cc(C(=O)[O-])cc(C(=O)[O-])c5)c5ccc2[n-]5)C=C4)C=C3)c1,EC50,MAGI cell,β-galactosidase,IIIB,,0.49 µM
CCCCCCCCCCCCCCCCCCOC[C@H](COP(=O)(O)C(=O)O)OCC,EC50,MT-2,p24,LAI,,0.39 µM
CCOC(=O)/C([O-])=C/[P+](c1ccccc1)(c1ccccc1)c1ccccc1,EC50,,,,,>100 µM
CO[C@H]1O[C@@H](n2ccc(=O)[nH]c2=O)C[C@@H]1N=[N+]=[N-],EC50,CEM-F + CEM,p24,,,2.76 µM
CCCCCCCCCCCCCCCCCCOCC(COP(=O)(O)C(=O)O)(OC)OC,EC50,HT4 + HT4-6C,plaque count,,,0.6 µM
Cc1cn([C@H]2C[C@H](N=[N+]=[N-])[C@@H](CO)O2)c(=O)[nH]c1=O,EC50,TZM-bl,p24 / ELISA,CNE8,,0.03073 µM
CCCCCCCCCCCCCCCCCCOC[C@@H](COP(=O)(O)C(=O)O)OCCCCCCCC,EC50,MT-2,p24,LAI,,5.61 µM
CCOC(=O)c1cn(C2OC(COC(=O)c3ccccc3)C(OC(=O)c3ccccc3)C2F)nn1,EC50,,,,,>100 µM
CCCN(C)C(=O)Oc1nsnc1-c1c(Cl)cccc1Cl,EC50,U-937,p24,IIIB,,0.003 µM
Cc1cn2c(nc1=O)OC[C@H]1O[C@@H]2C[C@@H]1N=[N+]=[N-],EC50,CEM-F + CEM,p24,,,0.56 µM
Cc1cc(S(N)(=O)=O)ccc1NC(=O)COc1ccc(Cl)cc1C(=O)c1cc(Cl)cc(C#N)c1,EC50,MAGI,β-galactosidase,NNRTI-resistant (RT V106I E138K P236L),RT-V106I E138K P236L,0.086 µM
N#Cc1ccc(Nc2nccc(Oc3cccc(C(=O)CC(=O)C(=O)O)c3)n2)cc1,EC50,MT-4,MTT,IIIB,K103N + Y181C,>10 µM
CCCCCCCCCCCCCCCCCCOC[C@@H](O)COP(=O)(O)C(=O)O,EC50,HT4 + HT4-6C,plaque count,,,2.6 µM
Cc1ccc(Cn2c(Cl)nc3cc(Cl)c(Cl)cc32)cc1,EC50,CEM + CEM-SS,plaque count / syncytia,IIIB,,33 µM
O=C([O-])c1cc(COc2ccc(-c3c4nc(c(-c5ccc(OCc6cc(C(=O)[O-])cc(C(=O)[O-])c6)cc5)c5ccc([nH]5)c(-c5ccc(OCc6cc(C(=O)[O-])cc(C(=O)[O-])c6)cc5)c5nc(c(-c6ccc(OCc7cc(C(=O)[O-])cc(C(=O)[O-])c7)cc6)c6ccc3[nH]6)C=C5)C=C4)cc2)cc(C(=O)[O-])c1,EC50,MAGI cell,β-galactosidase,IIIB,,0.21 µM
CCN(c1ncccc1NC(C)(C)C)C1CCN(C(=O)c2cc3cc(NS(C)(=O)=O)ccc3[nH]2)CC1,EC90,PBMC,p24,Isolate 461,,0.03 µM
CCO/N=C(\c1ccc(Br)cc1)C1CCN(C2(C)CCN(C(=O)c3c(C)cc[n+]([O-])c3C)CC2)CC1,EC50,PBMC,p24,JR-FL R5,,0.002 µM
O=[N+]([O-])c1ccccc1S(=O)(=O)Oc1ccccc1,EC50,CEM + CEM-SS,cytopathic effect / XTT,RF,,6.3 µM
O=C(O)c1cc(C(=O)O)cc(-c2c3nc(c(-c4cc(C(=O)O)cc(C(=O)O)c4)c4ccc([nH]4)c(-c4cc(C(=O)O)cc(C(=O)O)c4)c4nc(c(-c5cc(C(=O)O)cc(C(=O)O)c5)c5ccc2[nH]5)C=C4)C=C3)c1,EC50,MAGI cell,β-galactosidase,IIIB,,1.7 µM
CC(C)(C)NC(=O)[C@@H]1C[C@@H]2CCCC[C@@H]2CN1C[C@@H](O)[C@H](Cc1ccccc1)NC(=O)[C@H](CC(N)=O)NC(=O)c1ccc2ccccc2n1,EC50,MT-4,p24,NL4-3,PR-D30N M46I A71V,<0.01 µM
NC(=O)c1cnnn1C1OC(CO)C(O)C1F,EC50,,,,,>100 µM
Cc1ccnc2c1NC(=O)c1cccnc1N2C1CC1,EC50,MT-4,MTT,IIIB,K103N + Y181C,>15 µM
Nc1ccn([C@H]2CC[C@@H](CO)O2)c(=O)n1,EC50,MT-2,cytopathic effect / MTT,IIIB,,5.924 µM
CCCCCCCCCCCCCCCCCCOCCCOP(=O)(O)C(=O)O,EC50,MT-2,p24,LAI,,0.95 µM
CCOC(=O)C(=O)CC(=O)c1cccc(Oc2ccnc(Nc3ccc(C#N)cc3)n2)c1,EC50,MT-4,MTT,IIIB,L100I,>13 µM
[N-]=[N+]=N[C@H]1C[C@H](n2cc(I)c(=O)[nH]c2=O)O[C@@H]1CO,EC50,CEM-F + CEM,p24,,,12.6 µM
Nc1nc2cc(Cl)c(Cl)cc2n1Cc1ccc(Cl)cc1,EC50,CEM + CEM-SS,plaque count / syncytia,IIIB,,10 µM
Cc1cn([C@H]2C[C@H](N=[N+]=[N-])[C@@H](CO)O2)c(=O)[nH]c1=O,EC50,PBMC,p24,NL4-3 X5,,0.009 µM
Cc1cn2c(nc1=O)OC[C@@H]1CC[C@H]2O1,EC50,CEM-F + CEM,p24,,,48 µM
Nc1nc2cc(Cl)c(Cl)cc2n1Cc1ccc(C(F)(F)F)cc1,EC50,CEM + CEM-SS,plaque count / syncytia,IIIB,,1.8 µM

A second listing of 2 rows from above:

| compound | measure | cells | method | strain | changes | result |
|---|---|---|---|---|---|---|
| CO[C@H]1O[C@@H](n2ccc(=O)[nH]c2=O)C[C@@H]1N=[N+]=[N-] | EC50 | CEM-F + CEM | p24 |  |  | 2.76 µM |
| CCOC(=O)C(=O)CC(=O)c1cccc(Oc2ccnc(Nc3ccc(C#N)cc3)n2)c1 | EC50 | MT-4 | MTT | IIIB | L100I | >13 µM |